Measurements published in patent publication US20130202598.

Experiments:
[1] = tested on: PE-RTA-cleavage site-stalk peptide (P6-P4' NS5A/B site of genotype 1b/1a)
[2] = tested on: PE-RTA-mutated cleavage site-stalk peptide

## recombinant MBP-scNS3 fusion
[1]
  in vitro cleavage by NS3 (immunoblot with anti-PE antibodies): complete cleavage of the chimeric toxin
[2]
  in vitro cleavage by NS3 (immunoblot with anti-PE antibodies): remained indifferent to the presence of the protease
